From EP1215282A1, “METHOD OF DETECTING TRICHOTHECENE MYCOTOXINS AND REAGENT THEREOF” (dated 2001)

How the values were obtained:
[1] = system: antibody DON-1 of Casale, et al.; conditions: cited from earlier work
[2] = system: monoclonal antibody KTM-240; assay: competitive ELISA, specificity of antibody KTM-240
[3] = system: antibody of Dietrich, et al. (5B2); conditions: cited from earlier work
[4] = system: anti-T-2 monoclonal antibody IVI-10092; assay: reactivity of prior-art antibody IVI-10092 (U.S. Patent No. 4772551); conditions: based on the 50% inhibition value for T-2 as 100%
[5] = system: anti-T-2 toxin monoclonal antibody described in Japanese Published Examined Patent Application No. 43358/93; conditions: cited from earlier work

Row | Compound | reactivity of DON-1 (in words) [1] | reactivity of KTM-240 (in words) [2] | other results
1 | CC(=O)OC[C@]12[C@H](O)C(=O)C(C)=C[C@H]1O[C@@H]1[C@H](O)C[C@@]2(C)[C@]12CO2 | does not react | – | –
2 | CC(=O)OC[C@]12[C@H](O)C(=O)C(C)=C[C@H]1O[C@@H]1[C@H](OC(C)=O)C[C@@]2(C)[C@]12CO2 | – | strongly reacts | reactivity of KTM-240 relative to that with 15-acetyl-DON [2]: about 50 times; reactivity of 5B2 relative to that with 3-acetyl-DON [3]: about 6 times
3 | CC(=O)OC[C@]12[C@H](OC(C)=O)C(=O)C(C)=C[C@H]1O[C@@H]1[C@H](OC(C)=O)C[C@@]2(C)[C@]12CO2 | – | – | reactivity of KTM-240 relative to that with 15-acetyl-DON [2]: twice; reactivity of 5B2 relative to that with 3-acetyl-DON [3]: less than that with 3-acetyl-DON
4 | CC(=O)OC[C@]12C[C@H](OC(=O)CC(C)C)C(C)=C[C@H]1O[C@@H]1[C@H](OC(C)=O)[C@@H](OC(C)=O)[C@@]2(C)[C@]12CO2 | – | – | reactivity of IVI-10092 [4]: ca. 25%
5 | CC1=C[C@H]2O[C@@H]3[C@H](O)C[C@](C)([C@@]2(CO)[C@H](O)C1=O)[C@]31CO1 | reacts well | does not react | –
6 | CC(=O)O[C@@H]1C[C@]2(C)[C@@]3(CO)[C@H](O)C(=O)C(C)=C[C@H]3O[C@H]1[C@@]21CO1 | strongly reacts | – | –
7 | CC1=C[C@H]2O[C@@H]3[C@H](O)[C@@H](O)[C@](C)([C@@]2(CO)[C@H](O)C1=O)[C@]31CO1 | weakly reacts | does not react | –
8 | CC(=O)OC[C@]12C[C@H](OC(=O)CC(C)C)C(C)=C[C@H]1O[C@@H]1[C@H](O)[C@@H](O)[C@@]2(C)[C@]12CO2 | – | – | cross-reactivity [5]: about 3%
9 | CC(=O)OC[C@]12[C@H](O)C(=O)C(C)=C[C@H]1O[C@@H]1[C@H](OC(C)=O)[C@@H](OC(C)=O)[C@@]2(C)[C@]12CO2 | – | strongly reacts | –
